# For some assays here: A negative result means that nothing was seen under these conditions. Protein sequences can lack the tags named with them.
# Legend:
# Experiment in all cases: EMSA
# [1] = molecular target: T1, 6xHis-EspM(MT) (Mycobacterium tuberculosis Erdman) (UniProt P96214); conditions: recombinant protein; residues 46-392; protein details: 6xHis; probe letters rebuilt from the primers and the genome
# T1 sequence (looked up): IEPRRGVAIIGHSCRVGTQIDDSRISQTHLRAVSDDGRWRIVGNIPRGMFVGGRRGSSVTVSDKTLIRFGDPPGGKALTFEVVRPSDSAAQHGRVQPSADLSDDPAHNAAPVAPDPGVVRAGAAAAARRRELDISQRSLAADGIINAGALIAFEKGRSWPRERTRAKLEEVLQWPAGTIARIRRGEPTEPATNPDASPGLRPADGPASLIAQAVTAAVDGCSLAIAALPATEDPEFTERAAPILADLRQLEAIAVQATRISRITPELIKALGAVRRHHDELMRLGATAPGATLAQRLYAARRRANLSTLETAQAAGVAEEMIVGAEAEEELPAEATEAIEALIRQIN
# [2] = molecular target: T2, 6xHis-EspM(MM) (Mycobacterium marinum M (ATCC BAA-535)) (UniProt B2HMS6); conditions: EspM EMSA: 10 mM Tris-HCl pH 8.0, 40 mM KCl, 2.5 mM DTT, 0.25% Tween-20, 0.02 mg/mL salmon sperm DNA (listed as 0.5x binding buffer), ~70 ng probe, 20-25 min at 4 C; recombinant protein; residues 23-385; protein details: N-terminal 6xHis; probe letters rebuilt from the primers and the genome
# T2 sequence (looked up): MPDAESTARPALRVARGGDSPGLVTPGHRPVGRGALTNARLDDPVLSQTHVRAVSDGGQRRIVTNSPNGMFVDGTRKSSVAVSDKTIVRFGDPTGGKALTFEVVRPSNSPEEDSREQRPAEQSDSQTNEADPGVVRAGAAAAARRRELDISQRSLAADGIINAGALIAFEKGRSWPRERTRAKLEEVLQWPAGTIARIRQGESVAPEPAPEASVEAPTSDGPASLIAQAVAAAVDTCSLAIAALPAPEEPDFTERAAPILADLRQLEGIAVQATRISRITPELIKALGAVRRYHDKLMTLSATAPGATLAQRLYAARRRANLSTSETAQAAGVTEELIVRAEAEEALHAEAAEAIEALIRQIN
# [3] = molecular target: T3, 6xHis-EspM(CT) (Mycobacterium marinum M (ATCC BAA-535)) (UniProt B2HMS6); conditions: EspM EMSA: 10 mM Tris-HCl pH 8.0, 40 mM KCl, 2.5 mM DTT, 0.25% Tween-20, 0.02 mg/mL salmon sperm DNA (listed as 0.5x binding buffer), ~70 ng probe, 20-25 min at 4 C; recombinant protein; residues 149-385; protein details: 6xHis; probe letters rebuilt from the primers and the genome
# T3 sequence (looked up): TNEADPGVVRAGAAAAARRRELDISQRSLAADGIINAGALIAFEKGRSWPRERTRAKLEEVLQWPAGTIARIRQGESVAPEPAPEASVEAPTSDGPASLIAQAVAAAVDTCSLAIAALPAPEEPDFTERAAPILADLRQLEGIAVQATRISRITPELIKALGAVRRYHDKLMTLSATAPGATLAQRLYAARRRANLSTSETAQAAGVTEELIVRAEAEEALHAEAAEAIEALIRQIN
# [4] = test system: T4, WhiB6(MM)-6xHis (Mycobacterium marinum M (ATCC BAA-535)); conditions: WhiB6 buffer: 40 mM HEPES pH 7.5, 50 mM KCl, 2 mM MgCl2, 0.01 mM EDTA; EspM EMSA: 10 mM Tris-HCl pH 8.0, 40 mM KCl, 2.5 mM DTT, 0.25% Tween-20, 0.02 mg/mL salmon sperm DNA (listed as 0.5x binding buffer), ~70 ng probe, 20-25 min at 4 C; recombinant protein; residues 1-95; protein details: C-terminal 6xHis; probe letters rebuilt from the primers and the genome
# T4 sequence (looked up): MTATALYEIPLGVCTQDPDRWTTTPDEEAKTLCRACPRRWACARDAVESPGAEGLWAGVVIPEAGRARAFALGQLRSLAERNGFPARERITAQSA
# [5] = molecular target: T5, 6xHis-EspM(NT) (Mycobacterium marinum M (ATCC BAA-535)) (UniProt B2HMS6); conditions: EspM EMSA: 10 mM Tris-HCl pH 8.0, 40 mM KCl, 2.5 mM DTT, 0.25% Tween-20, 0.02 mg/mL salmon sperm DNA (listed as 0.5x binding buffer), ~70 ng probe, 20-25 min at 4 C; recombinant protein; residues 23-155; protein details: 6xHis; probe letters rebuilt from the primers and the genome
# T5 sequence (looked up): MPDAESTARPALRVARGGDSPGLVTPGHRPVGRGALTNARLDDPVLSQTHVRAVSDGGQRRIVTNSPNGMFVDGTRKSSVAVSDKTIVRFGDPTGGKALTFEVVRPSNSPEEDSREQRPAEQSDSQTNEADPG
Sequence,binding result [1],binding result [2],binding result [3],binding result [4],binding result [5]
CCTCTGCCTGCCTAGCGGTGCTGCGGCTCCGGTTCGGCGAGCTCCGAGCTCTAGTGCGCGCACCGCCGAGTACCAGGGCATAGATCCTGTTAATCAGCTGTGTATCTGGCCTCGCCGGCGCGTATCCGACCCCTTCGGGCAGATCTTCCAGGAAAAGTGTTCTGACATGCGACAGTTCAGGTGTGAAGTGAACTGTAGCGGCAGTTCGGTTTGGCTAGGAAACTATTTCCATAGCGGGCCGTCGCGTCGCTAGATCCAAAATGTAGCGAAGTCATAGCAGTAGAAGGGTGCAACGGTTAGGATGGCGGGCGAGCGGAAAGTCTGCCCACCGTCCCGGCTAGTACCCGCGAATAAGGGATCAACGCAGATGTCTAAAGCAGGGTCGACTGTCGGACCGGCGCCGCTGGTCGCGTGCAGCGGCGGCACATCAGACGTGATTGAGCCCCGTCGCGGTGTCGCGATCATTGGCCACTCGTGCCGAGTCGGCACCCAGATCGACGATTCTCGAATCTCTCAGACACATCTGCGAG (double strand) [whiB6(MT) promoter EMSA probe],binds,–,–,–,–
GTTGCAGGTTCGTAACCTCTGCCCGAGGATCGTATAGCACTAACCGTCGCAGTGCAACAGTTCCCGATGCAGGGCCGCACACCCTCCTGCTACAACTTCGCTGCGCGATGGGCCATGATAAGCATCTAACCTGGCATAACCAGCGGTAATTAGCTGTCAATCGGCTGGGTGACACGGCGCTCCGCCAACCCCGACGCACACCCTTCCGGACAGAAACTGTTCCACTGCGCAATGCTTCGGGGTAGGATCAAACGTAGCGGTGGCCCGGTTTAACCAGACAACGGTCGCTTCGGAACCCCGCTGGATGTCGTTCAAGAAACGTAGCGAAGGCATACCAATGGAAGGGTGCAACGGTTAGGATGTTGGTCAGCGGAACGCGCGCCTTGCCACCCGCCTCAGTAGCCGCGAGCGAGGAATCGACGTACATGCCCGACGCCGAATCGACTGCTCGGCCGGCCCTGCGAGTCGCCCGTGGCGGCGACTCACCGGGCCTGGTAACGCCCGGTCACCGACCCGTCGGCCGCGGCGCGCTGACCAACGCACGACTGGATGATCCCGTGTTATC (double strand) [whiB6 promoter EMSA probe (whiB6-espM intergenic)],–,binds,binds,binds,no binding

# Source: paper PMC7002343
